Results of unrelated studies side by side (data: NIAID ChemDB).

Common to all: cytotoxicity tests; cells: KB; measure: CC50

Rows are shuffled and stem from different studies. CCn: concentration that lowers growth or viability of the cells by n%. An empty or dashed field is not shown.

| compound | read by | value |
|---|---|---|
| O[C@H]1[C@@H](O)CO[C@H]1c1c(Cl)nc2cc(Cl)c(Cl)cn12 | - | >100 µM |
| CCc1nc2c3c(cn([C@@H]4O[C@H](CO)[C@@H](O)[C@H]4O)c3n1)C(N)=NN2C | - | >100 µM |
| O=C(CCCCCCCCc1ccccc1)c1c(O)cc(O)cc1O | resazurin | >20 µg/mL |
| OC[C@H]1O[C@@H](n2c(Cl)nc3cc(Cl)c(Cl)cc32)[C@H](O)[C@@H]1O | - | 210 µM |
| C=C1[C@H](n2cc(CC)c(=O)[nH]c2=O)S[C@H](CO)[C@H]1O | MTT | >100 µg/mL |
| OCCOCn1c(=S)[nH]c2c(Cl)cc(Cl)cc21 | - | >100 µM |
| CC(C)Nc1nc2cc(Cl)c(Cl)cc2n1[C@@H]1OC[C@@H](O)[C@H]1O | - | >100 µM |
| C=C1[C@H](n2cc(CCO)c(=O)[nH]c2=O)S[C@H](CO)[C@H]1O | MTT | >100 µg/mL |
| CCCOc1ccc(N2C(=O)CCNC2=S)cc1 | - | >1 µg/mL |
| OCCOCn1c(Br)nc2c(Cl)c(Cl)ccc21 | - | >100 µM |
| C/C(=C\C[C@H](O)[C@@H](C)[C@H]1CC[C@@]2(C)C3=C(CC[C@]12C)[C@@]1(C)CC[C@H](O)C(C)(C)C1CC3)C(=O)O | resazurin | >50 µg/mL |
| OC[C@H]1O[C@@H](n2c(Cl)nc3cc(Cl)c(Cl)cc32)[C@H](O)[C@@H]1O | - | 200 µM |
| COc1ccc2[nH]c3c(C)c(C)c(OC)c(OC)c3c2c1 | resazurin | 33.2 µg/mL |
| COc1c(O)c2c(c(O)c1CCOC(C)=O)CCC(OC)C2=O | - | 0.028 µg/mL |
| Nc1nc2c(ncn2COC(CO)CO)c(=O)[nH]1 | - | ≥200 µM |
| CSC[C@H]1O[C@@H](n2c(Cl)nc3cc(Cl)c(Cl)cc32)[C@H](OC(C)=O)[C@@H]1OC(C)=O | - | >100 µM |
| OCCSCc1c(Cl)nc2ccc(Cl)cn12 | - | >100 µM |
| CNc1nc2c(Cl)cc(Cl)cc2n1COCCO | - | >100 µM |
| O[C@@H]1[C@H](O)[C@@H](CBr)O[C@H]1n1c(Cl)nc2cc(Cl)c(Cl)cc21 | - | 90 µM |
| CN1N=C(N)c2cn([C@@H]3O[C@H](CO)[C@@H](O)[C@H]3O)c3nc(-c4ccccc4)nc1c23 | - | >100 µM |
| CCCCCOc1ccc(N2C(=O)CCNC2=S)cc1 | - | >1 µg/mL |
| OCCOCn1c(Cl)nc2c(Cl)c(Cl)ccc21 | - | >100 µM |
| CCCCOc1ccc(N2C(=O)CCNC2=S)cc1 | - | >1 µg/mL |
| Nc1ncnc2c1ncn2C=C1CC1CO | - | ~80 µM |
| C[C@@H]1O[C@@H](n2c(Cl)nc3cc(Cl)c(Cl)cc32)[C@H](O)[C@@H]1O | - | 60 µM |
| C[C@@]1(O)[C@H](O)[C@@H](COP(=O)(O)OP(=O)(O)OP(=O)(O)O)O[C@H]1n1ccc2c(N)ncnc21 | - | >100 µM |
| C=C1[C@H](O)[C@@H](CO)S[C@@H]1n1cc(/C=C/Br)c(=O)[nH]c1=O | MTT | >100 µg/mL |
| CC(=O)O[C@@H]1[C@H](OC(C)=O)[C@@H](CI)O[C@H]1n1c(Cl)nc2cc(Cl)c(Cl)cc21 | - | 60 µM |
| O=C1[C@@H](n2cc(-c3ccccc3)nn2)[C@@H](/C=C/c2ccccc2)N1c1ccc(Cl)cc1 | - | 84.17 µM |
| [N-]=[N+]=NC[C@H]1O[C@@H](n2c(Cl)nc3cc(Cl)c(Cl)cc32)[C@H](O)[C@@H]1O | - | 70 µM |
| CC(C)Nc1nc2cc(Cl)c(Cl)cc2n1[C@H]1O[C@@H](CO)[C@H](O)[C@@H]1O | - | 65 µM |
| OCC(O)COCc1c(Cl)nc2cc(Cl)c(Cl)cn12 | - | >100 µM |
| Nc1nc2c(ncn2COC(CO)CO)c(=O)[nH]1 | - | >100 µM |
| Nc1nc2c(ncn2COC(CO)CO)c(=O)[nH]1 | - | >100 µM |
| OC[C@H]1O[C@@H](n2c(Br)nc3cc(Cl)c(Cl)cc32)[C@H](O)[C@@H]1O | - | >100 µM |
| CCO/N=C/c1ccc(OCCC2CCN(c3ccc(Cl)nn3)CC2)cc1 | - | 7.465 µM |
| Nc1c2c(nc(=S)n1-c1ccccc1)SC(c1ccncc1)C1=C2/C(=C/c2ccncc2)CCC1 | MTT | 13.1 µM |
| O[C@@H]1[C@H](O)[C@@H](CCl)O[C@H]1n1c(Cl)nc2cc(Cl)c(Cl)cc21 | - | 90 µM |
| Cc1ccc(/C=C2/Cn3c(nc4c(c3=S)C3=C(CCC/C3=C\c3ccncc3)C(c3ccncc3)S4)SC2=O)cc1 | MTT | 19.8 µM |
| C=C1[C@H](n2cc(I)c(=O)[nH]c2=O)S[C@H](CO)[C@H]1O | MTT | >100 µg/mL |
| CCOC(=O)/C(N=Nc1ccc(C(=O)N/N=C\c2ccc(F)cc2)cc1)=C(\C)O | - | >20 µg/mL |
| Cc1ccc(N2C(=O)[C@@H](n3cc(-c4ccccc4)nn3)[C@H]2/C=C/c2ccccc2)cc1 | - | 89.15 µM |
| CC(=O)O[C@@H]1[C@H](OC(C)=O)[C@@H](CF)O[C@H]1n1c(Cl)nc2cc(Cl)c(Cl)cc21 | - | 100 µM |
| Nc1nc2c(Cl)c(Cl)ccc2n1COCCO | - | >100 µM |
| Nc1nc(N)c2cc3c(nc2n1)CCc1ccccc1-3 | MTT | 9.5 µM |
| CC(C)Nc1nc2cc(Cl)c(Cl)cc2n1[C@H]1O[C@H](CO)[C@H](O)[C@@H]1O | - | >100 µM |
| C[N+](C)(C)C(Cc1c[nH]c2ccccc12)C(=O)[O-] | resazurin | >50 µg/mL |
| OCC(CO)OCn1c(SCc2ccccc2)nc2c(Cl)c(Cl)ccc21 | - | 60 µM |
| CC(=O)O[C@@H](C/C=C(\C)C(=O)O)[C@@H](C)[C@H]1CC[C@@]2(C)C3=C(CC[C@]12C)[C@@]1(C)CC[C@@H](O)C(C)(C)C1CC3 | resazurin | 31.55 µg/mL |
| C=C1[C@H](O)[C@@H](CO)S[C@@H]1n1cc(CC)c(=O)[nH]c1=O | MTT | >100 µg/mL |
| OCCOCn1c(SCc2ccccc2)nc2c(Cl)cc(Cl)cc21 | - | >100 µM |
| Clc1cc2nc(Cl)c(CSCc3ccccc3)n2cc1Cl | - | >100 µM |
| CCOC(=O)c1cnc2ccc3c(C)cc(=O)[nH]c3c2c1C | - | 15 µg/mL |
| COCCOCn1cc(C(N)=S)c2c(N)ncnc21 | - | >100 µM |
| Clc1nnnc2c1C1=C(CCC/C1=C\c1ccncc1)C(c1ccncc1)S2 | MTT | 11.9 µM |
| O=C1[C@@H](n2cc(-c3ccccc3)nn2)[C@@H](/C=C/c2ccccc2)N1c1ccccc1 | - | 91.25 µM |
| CCCCOC[C@H]1O[C@@H](n2c(Cl)nc3cc(Cl)c(Cl)cc32)[C@H](OC(C)=O)[C@@H]1OC(C)=O | - | >100 µM |
| O=P1(O)OCC2O[C@@H](n3cnc4c(NO)ncnc43)[C@H](O)C2O1 | - | ≥3.2 µg/mL |
| COc1cc2c3c(cc(O)c2cc1C)C(C)(C)C(=O)OC3=O | absorbance | >10 µM |
| O=C1CCNC(=S)N1c1ccccc1 | - | >1 µg/mL |
| Nc1nc2cc(Cl)c(Cl)cc2n1COC(CO)CO | - | >100 µM |
| COc1ccc2[nH]c3c(Cc4ccc5[nH]c6c(C)c(C)c(OC)c(O)c6c5c4)c(C)c(OC)c(O)c3c2c1 | resazurin | 40.1 µg/mL |
| C=C1[C@H](O)[C@@H](CO)S[C@@H]1n1cc(I)c(=O)[nH]c1=O | MTT | >100 µg/mL |
| COc1c(C)c(C)c2[nH]c3ccccc3c2c1OC | resazurin | 30.1 µg/mL |
| CN1N=C(N)c2cn([C@@H]3O[C@H](COP(=O)(O)O)[C@@H](O)[C@H]3O)c3ncnc1c23 | - | 10 µM |
| OCCCOCc1c(Cl)nc2cc(Cl)c(Cl)cn12 | - | >100 µM |

Again, the opening 9 rows:

{"compound": "O[C@H]1[C@@H](O)CO[C@H]1c1c(Cl)nc2cc(Cl)c(Cl)cn12", "value": ">100 µM"}
{"compound": "CCc1nc2c3c(cn([C@@H]4O[C@H](CO)[C@@H](O)[C@H]4O)c3n1)C(N)=NN2C", "value": ">100 µM"}
{"compound": "O=C(CCCCCCCCc1ccccc1)c1c(O)cc(O)cc1O", "read by": "resazurin", "value": ">20 µg/mL"}
{"compound": "OC[C@H]1O[C@@H](n2c(Cl)nc3cc(Cl)c(Cl)cc32)[C@H](O)[C@@H]1O", "value": "210 µM"}
{"compound": "C=C1[C@H](n2cc(CC)c(=O)[nH]c2=O)S[C@H](CO)[C@H]1O", "read by": "MTT", "value": ">100 µg/mL"}
{"compound": "OCCOCn1c(=S)[nH]c2c(Cl)cc(Cl)cc21", "value": ">100 µM"}
{"compound": "CC(C)Nc1nc2cc(Cl)c(Cl)cc2n1[C@@H]1OC[C@@H](O)[C@H]1O", "value": ">100 µM"}
{"compound": "C=C1[C@H](n2cc(CCO)c(=O)[nH]c2=O)S[C@H](CO)[C@H]1O", "read by": "MTT", "value": ">100 µg/mL"}
{"compound": "CCCOc1ccc(N2C(=O)CCNC2=S)cc1", "value": ">1 µg/mL"}